In the supplement of paper PMC9931576:
Human monoclonal antibodies against the spike receptor-binding domain (heavy:light variable regions). IC50 against pseudoviruses bearing the spike of naturally observed variants; lower = stronger; >10 µg/ml means not reached at the top dose. No active / inactive call. The stated detection limit is 0.0005 µg/ml; values near or below 0.001 µg/ml lie at the floor of the assay.

Tests used:
Assay in all cases: pseudovirus neutralization IC50; higher = weaker neutralization
[1] = target: SARS-CoV-2 Omicron BA.1 spike pseudovirus
Protocol: (§1)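 Single-round VSV luciferase pseudovirus mixed with antibody dilutions for 1 h and put on Huh-7 cells for about a day; IC50 from the dose curve.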

[2] = target: SARS-CoV-2 Omicron BA.2 spike pseudovirus
Protocol: as §1

[3] = target: SARS-CoV-2 Omicron BA.2.75 spike pseudovirus
Protocol: as §1

[4] = target: SARS-CoV-2 Omicron BA.5 spike pseudovirus
Protocol: as §1

[5] = target: SARS-CoV-2 Omicron BQ.1.1 spike pseudovirus
Protocol: as §1

[6] = target: SARS-CoV-2 Omicron XBB spike pseudovirus
Protocol: as §1

[7] = target: SARS-CoV-2 early D614G spike pseudovirus
Protocol: as §1

Binder	pseudovirus neutralization IC50 [1]	pseudovirus neutralization IC50 [2]	pseudovirus neutralization IC50 [3]	pseudovirus neutralization IC50 [4]	pseudovirus neutralization IC50 [5]	pseudovirus neutralization IC50 [6]	pseudovirus neutralization IC50 [7]
BD55-5887 (protein) chain 1: QVQLVQSGAEVKKPGASVKVSCKASGYTSTSYYMNWVRQAPGQGLEWMGIINPSRGSTSYAHKFQGRVTMTRDSSTSTVYMELSSLRSEDTAVYYCATFGGLMLKGSVFDLWGQGTMVTVSS chain 2: DIVMTQSPDSLAVSLGERATINCKSSQSVLYNSNNKNYLAWYQQKPGHPPKLLIYWASTRESGVPDRFSGSGSGTDFTLTISSLQAEDVAVYYCQQYSTTLPTFGQGTKLEIK	0.42 µg/mL	0.258 µg/mL	0.063 µg/mL	> 10 µg/mL	> 10 µg/mL	> 10 µg/mL	0.00103 µg/mL
BD55-5876 (protein) chain 1: VQLVQSGAELKKPGASVKVSCKASGYIFSNFGISWVRQAPGQGLEWMGWISTSNGNTKYAQNVQGRVTMTIDKSSSTAFMELTSLRSDDTAFYYCARDGEQLLQSYFDYWGQGTLVTVSS chain 2: SYVLTQPPSVSVAPGETARITCGGVDIGSKSVHWYQQMPGQAPVLVIYYDGDRPSGIPERFSGSNSGNTATLTISRVEAGDEADYYCQVWVGSSDHHWVFGGGTKLTVL	> 10 µg/mL	> 10 µg/mL	> 10 µg/mL	> 10 µg/mL	> 10 µg/mL	> 10 µg/mL	> 10 µg/mL
BD55-5839 (protein) chain 1: QLQLQESGPGLVKPSETLSLTCTVSGGSISSTSYSWAWIRQPPGKGLEWIGSINYSGSASYNPSLKIRVTTSVDTSKNQFSLKLSSVTAADTAVYYCARHTGDYEFDYWGQGTLVTVSS chain 2: DIQMTQSPSTLSASVGDRVTITCRASQSISRWLAWYQQKPGKAPKLLIYKASILESGVPSRFSGSGSGTEFTLTISSLQPDDFASYYCQQYNSYSTFGGGTKVEIK	> 10 µg/mL	> 10 µg/mL	> 10 µg/mL	> 10 µg/mL	> 10 µg/mL	> 10 µg/mL	0.958 µg/mL
BD55-5902 (protein) chain 1: EVQLVQSGAEVKKPGESLKISCKGSGYSFPYYWIGWVRQMPGKGLEWMGIMYPGDSDIRYSPSFQGQVTISADKSISTAYLQWSSLKASDTAMYYCVNTLLRRALVGSTGWAFDIWGQGTMVTVSS chain 2: QSVLTQPPSASGTPGQRVTISCSGSSSNIGSNTVNWYQQLPGTAPKLLIYSNNQWPSGVADRFSGSKSGTSASLAISGLQSEDEADYYCATWDDSLNGLVFGGGTKLTVL	> 10 µg/mL	> 10 µg/mL	> 10 µg/mL	> 10 µg/mL	> 10 µg/mL	> 10 µg/mL	0.285 µg/mL
BD55-5865 (protein) chain 1: EVQLVESGGGLVKPGGSLRLSCAASGFSFTTHTMSWVRQALGKGLEWVSSIDGRTGFTYYADSVKGRFTISRDNAKNSLYLQISSLRAEDTAVYYCARDENLVRGFSGYEPTLYYGMDVWGQGTTVTVSS chain 2: QSVLTQPPSVSGAPGQRVTISCTGSGSNIGAGYDVHWYQQLPGTAPKLLIYANNNRPSGVPDRFSGSKSGTSASLAITGLQAEDEADYYCQSYDSGSLSGSKVFGGGTKLTVL	> 10 µg/mL	> 10 µg/mL	> 10 µg/mL	> 10 µg/mL	> 10 µg/mL	> 10 µg/mL	0.0301 µg/mL
BD55-5885 (protein) chain 1: EVQLVESGGGLVQPGGSLRLSCVASGFTFSSYWMSWVRQAPGKGLEWVANMKQDGSEKYYGDSVKGRFTISRDNAKNSLYLQLNSLGAEDTAVYYCARDPGLSVRGGDCYFDYWGQGTLVTVSS chain 2: SYELTQPPSVSVSPGQTARITCSGDTFPNQYAYWYQQKPGQAPVLVIYKDSERPSGIPERFSGSSSGTTVTLTISGVQAEDEADYYCQSADSSGANVVFGGGTKLTVL	> 10 µg/mL	> 10 µg/mL	> 10 µg/mL	> 10 µg/mL	> 10 µg/mL	> 10 µg/mL	> 10 µg/mL
BD55-5897 (protein) chain 1: EVHLVASGGGLIRPGGSLRLSCAASGFTVSSNYFSWVRQAPGKGLEWVSVIYPGGTTQYADSVKGRFTISRDNSKNTLYLQMNSLRADDTAVYYCARDLGSYLDYWGQGTLVTVSS chain 2: EIVLTQSPATLSVSPGERATLSCRTSQNIDNNLAWYQQKPGQAPRLLISGASTRATGVPARFSGSGSGTEFTLTISGLQSEDFAVYYCQQYNDWPSRPFGQGTKVEIK	1.85 µg/mL	1.52 µg/mL	> 10 µg/mL	> 10 µg/mL	> 10 µg/mL	> 10 µg/mL	0.041 µg/mL
BD55-5889 (protein) chain 1: EVQLVESGGGLVQPGGSLRLSCAASGFTFSRYWMSWVRQAPGKGLEWVANIKRDGSEEIYVDSVKGRFTISRDNAQNSLYLLMNSLRAEDTAVYFCARAPVSYNILTPEYFDSWGQGTLVTVSS chain 2: SNELTQPPSVSVSPGQTARITCSGDTLPTQYTYWYQQKPGQAPVLVIYKDSERPSWIPERFSGSSSGTTGTLTISGVQAEDEADYYCQSADSISWVFGRGTKLTVL	> 10 µg/mL	> 10 µg/mL	> 10 µg/mL	> 10 µg/mL	> 10 µg/mL	> 10 µg/mL	1.72 µg/mL
BD55-5878 (protein) chain 1: EVQLVESGGGVVQPGGSLRLSCVASGFIFDDYAMHWVRQAPGKGLEWVSLISGDGLSTYYADSVRGRFTISRDSSKKSLYLQMNSLRIEDTALYYCAKDTTYFDFLTGSGMDVWGQGTTVTVS chain 2: NFMLTQPHSVSESPGKTVTISCTRSSGNIASNYVHWYQQRPGSAPTTVIYEDNQRPSGVPDRFSGSIDSSSNSASLTISGLTTEDEADYYCQSFESNNRNWVFGGGTKLTVL	> 10 µg/mL	> 10 µg/mL	> 10 µg/mL	> 10 µg/mL	> 10 µg/mL	> 10 µg/mL	0.0707 µg/mL
BD55-5856 (protein) chain 1: EVQLLESGGGLVQRGGSLRLSCAASGFTISSYGMSWVRQAPGKGLEWVSSISGSGGNTYYADSVQGRITISRDNSKNTLYLQMNSLRAEDTAVYFCAREQLWFGEHTFDYWGQGTLVTVSS chain 2: DIQLTQSPSFLSASVGDRVTISCRASPGISSYLAWYQQKPGKAPKLLIYAASSLQSGVPSRFSGSGSGTEFTLTISSLQPEDFATYYCQQLNSYPPITFGQGTRLEIK	> 10 µg/mL	> 10 µg/mL	> 10 µg/mL	> 10 µg/mL	> 10 µg/mL	> 10 µg/mL	0.00186 µg/mL
BD55-1114 (protein) chain 1: EVQLVQSGAEMKKPGESLTISCKGSGYSFTNYGIAWVRQMPGKGLEWMGISHPGDSDATYSPSFQGQVTISADNSINTAYLQWSSLKDSDTAMYYCARTGIPQYKDILTGFRWDFDYWGQGTLVTVSS chain 2: EIVLTQSPATLSLSPGERATLSCRASQSFSNYLAWYQQKPGQAPRLLIYDASSRATGIPPRFSGSGSGTDFTLTISSLEPEDFAIYYCQQRTNWSPGTFGQGTKVEIK	0.151 µg/mL	0.19 µg/mL	0.171 µg/mL	0.312 µg/mL	> 10 µg/mL	> 10 µg/mL	0.001 µg/mL
BD55-5853 (protein) chain 1: EVHLVESGGGLVQPDRSLRLSCAASGFTFDDYSMHWVRQAPGKGLEWVSSINWNSVRIDYADSVKGRFTISRDNAKNSLYLQMNSLRAEDTALYYCAKPLSSGWTFSGTTDDAFEIWGQGTMVTVSS chain 2: QSALTQPPSVSGSPGQSVTISCTGTSSDVGSYHRVSWYQQPPGTAPKLIIYEVSNRPSGVPDRFSGSKSGNTASLTISGLQAEDEADYYCGSYTITNTWVFGGGTKLTVL	> 10 µg/mL	> 10 µg/mL	> 10 µg/mL	> 10 µg/mL	> 10 µg/mL	> 10 µg/mL	0.336 µg/mL
